Experimental data as given in patent US20020055094A1 (priority 1996, published 2002).

Experiments:
[1] = target: whole virus influenza neuraminidase, influenza A strain NWS/G70C (Influenza A virus, UniProt P03472); details: read-out: Binding Constants (M) / inhibition constants (IC50), NWS/G70C
[2] = test system: NWS/G70C Influenza A virus (H1N9 subtype); details: for absorption signal after capture: 21 at 1 and 10 μM, control 8 at 10 μM, serial two-fold virus dilutions

Row | Structure (SMILES) | IC50 [1] [M] | absorption signal after capture [2] | virus detection limit after capture ([2]; compound at 1 and 10 μM on avidin-coated wells, anti-hemagglutinin antibody / Ab-HRPO / ABTS readout)
1 | CC(=O)N[C@H]1[C@H]([C@H](OC(=O)NCCOCCOCCN)[C@H](O)CO)OC(C(=O)O)=C[C@@H]1NC(=N)N [compound 17, 5-acetamido-7-{2-[2-(2-aminoethoxy)-ethoxy]-ethyl}-carbamoyloxy-4-guanidino-2,3,4,5-tetradeoxy-D-glycero-D-galacto-non-2-enopyranosonic acid] | 2e-08 | – | –
2 | CC(=O)N[C@H]1[C@H]([C@H](OC(=O)NCCCCCCNC(=O)CNC(=O)CNC(=O)CNC(=O)CCCC[C@@H]2SC[C@@H]3NC(=O)N[C@@H]32)[C@H](O)CO)OC(C(=O)O)=C[C@@H]1NC(=N)N [Compound No. 21, 5-acetamido-7-(6′-biotinylamino-tricrlycinamido-hexy) -carbamoyloxy-4-guanidino-2,3,4,5-tetradeoxy-D-glycerQ-D-galacto-non-2-enopyranosonic acid] | 2e-08 | a strong absorption signal at the highest virus concentration and then a decreasing signal with virus dilution | 1.6×10^5 pfu per test
3 | CC(=O)N[C@H]1[C@H]([C@H](OC(=O)NCCCCCCNC(=O)OC(C)(C)C)[C@H](O)CO)OC(C(=O)O)=C[C@@H]1NC(=N)N [compound 13, 5-acetamido-7-(6′-tert-butoxycarbonylaminohexyl)-carbamoyloxy-4-guanidino-2,3,4,5-tetradeoxy-D-glycero-D-galacto-non-2-enopyranosonic acid] | 2e-08 | – | –
4 | CC(=O)N[C@H]1[C@H]([C@H](OC(=O)NCCCCCCNC(=O)CCCCCNC(=O)CCCC[C@@H]2SC[C@@H]3NC(=O)N[C@@H]32)[C@H](O)CO)OC(C(=O)O)=C[C@@H]1NC(=N)N [compound 23, 5-Acetamido-7-(6′-biotinylamino-caproyl-aminohexyl) -carbamoyl-4-guanidino-2,3,4,5-tetradeoxy-D-glycero-D-galacto-non-enopyranosonic acid] | 5e-09 | – | –
5 | CC(=O)N[C@H]1[C@H]([C@H](OC(=O)NCCCCCCNC(=O)CCCC[C@@H]2SC[C@@H]3NC(=O)N[C@@H]32)[C@H](O)CO)OC(C(=O)O)=C[C@@H]1NC(=N)N [compound 19, 5-acetamindo-7-(6′-biotinylaminohexyl),carbamoyloxy-4-guanidino-2,3,4,5-tetradeoxy-D-crlvero-D-galacto-non-2-enopyranosonic acid] | 5e-09 | – | –
6 | CC(=O)N[C@H]1[C@H]([C@H](OC(=O)NCCCCCCNC(=O)CCCCCCCCCCCNC(=O)CCCC[C@@H]2SC[C@@H]3NC(=O)N[C@@H]32)[C@H](O)CO)OC(C(=O)O)=C[C@@H]1NC(=N)N [compound 22, 5-Acetamido-7-(6′-biotinylamino-dodecanoyl-aminohexyl) -carbamoyl-4-guanidino-2,3,4,5-tetradeoxy-D-glycero-D-galacto-non-2-enopyranosonic acid] | 5e-09 | – | –
7 | CC(=O)N[C@H]1[C@H]([C@H](OC(=O)NCCCCCCNC(=O)CCCCCNC(=O)CCCCCNC(=O)CCCCCNC(=O)CCCCCN)[C@H](O)CO)OC(C(=O)O)=C[C@@H]1NC(=N)N [compound 25, 5-acetamido-7-(6′-(6″-(6″′-aminocaproyl) -triaminocaproyl) -aminohexyl) -carbamoyloxy-4-guanidino-2,3,4,5-tetradeoxy-D-glycero-D-galacto-non-2-enopyranosonic acid] | 4e-08 | – | –
8 | CC(=O)N[C@H]1[C@H]([C@H](OC(=O)NCCCCCCNC(=O)NCCCCCCNC(=O)OC(C)(C)C)[C@H](O)CO)OC(C(=O)O)=C[C@@H]1N [compound 20, 5-acetamido-4-amino-7-[6′-(6″-tert-butoxycarbonyl-aminohexylureido) -hexyl]-carbamoyloxy-2,3,4,5-tetradeoxy-D-glycero-D-galacto-non-2-enopyanosonic acid] | 1e-05 | – | –
9 | CC(=O)N[C@H]1[C@H]([C@H](OC(=O)NCCCCCCN)[C@H](O)CO)OC(C(=O)O)=C[C@@H]1NC(=N)N [compound 11, 5-acetamido-7-(6′-aminohexyl)-carbamoyloxy-4-guanidino-2,3,4,5-tetradeoxy-D-glycero-D-galacto-non-2-enopyranosonic acid] | 2e-08 | – | –
10 | CC(=O)N[C@H]1[C@H]([C@H](OC(=O)NCCCCCCNC(=O)NCCCCCCN)[C@H](O)CO)OC(C(=O)O)=C[C@@H]1NC(=N)N [Compound No. 8, 5-acetamido-7-[6′-(6″-aminohexylureido)-hexyl]-carbamoyloxy-4-guanidino-2,3,4,5-tetradeoxy-D-glycero-D-galacto-non-2-enopyranosonic acid] | 1e-08 | only a weak, unchanging absorption at all virus concentrations | –
